Source: PubChem BioAssay AID624099 (ICCB-Longwood, 2012)

- Test: 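Knock-downs relieving repression by E2 of an HPV18 LCR luciferase reporter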 (primary screen)
- Cell system: human C33A cervical carcinoma cells (HPV-negative) stably expressing BPV1 E2 and an HPV18 LCR luciferase reporter
- Reagents: siRNA pool against human genes, 40 nM
- Duration: 72 h
- Measured: 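Per-well luciferase luminescence, z-scored on each plate against the plate mean and SD with control wells left out, then averaged across three replicate plates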
- Direction: mean z-score and z-score: higher = stronger reporter signal, weaker E2 silencing
- Rule for the call: 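Mean z ≥ 2 together with z ≥ 2 in two or more of the three replicates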
This is a random part of about 21,000 reagents. 497 of them (2.4%) count as active. 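Higher z means weaker E2 silencing; only reporter increases were scored, and knock-downs that hurt cell survival may mask genuine repressor factors.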 Reagents against one gene are numbered here.

| gene knocked down | pool no. | mean z-score | z-score, replicate A | z-score, replicate B | z-score, replicate C | outcome |
| --- | --- | --- | --- | --- | --- | --- |
| PNLDC1 (PARN like ribonuclease domain containing exonuclease 1) | 1 | 0.42 | 0.07 | 0.52 | 0.66 | inactive |
| TMEM40 (transmembrane protein 40) | 1 | -0.97 | -1.22 | -0.93 | -0.76 | inactive |
| EBF2 (EBF transcription factor 2) | 1 | 0.63 | 0.69 | 0.76 | 0.45 | inactive |
| EBF2 (EBF transcription factor 2) | 2 | -0.07 | -0.45 | 0.36 | -0.1 | inactive |
| CXorf58 (chromosome X open reading frame 58) | 1 | -1.21 | -1.37 | -0.99 | -1.28 | inactive |
| PPP2R5E (protein phosphatase 2 regulatory subunit B'epsilon) | 1 | -1.08 | -0.88 | -1.32 | -1.04 | inactive |
| RPL41 (ribosomal protein L41) | 1 | 0.59 | 0.65 | 0.58 | 0.55 | inactive |
| EXOC3L2 (exocyst complex component 3 like 2) | 1 | -1.89 | -1.92 | -1.99 | -1.75 | inactive |
| B4GALT4 (beta-1,4-galactosyltransferase 4) | 1 | -0.03 | 0.09 | -0.24 | 0.07 | inactive |
| FBXW11 (F-box and WD repeat domain containing 11) | 1 | 1.41 | 1.15 | 1.33 | 1.75 | inactive |
| INA (internexin neuronal intermediate filament protein alpha) | 1 | 0.17 | 0.19 | 0.18 | 0.15 | inactive |
| GON4L (gon-4 like) | 1 | -0.75 | -1.22 | -0.39 | -0.63 | inactive |
| MRM3 (mitochondrial rRNA methyltransferase 3) | 1 | -1.04 | -0.8 | -0.93 | -1.37 | inactive |
| PPP4R3C (protein phosphatase 4 regulatory subunit 3C) | 1 | -1.86 | -2 | -1.87 | -1.72 | inactive |
| TEX11 (testis expressed 11) | 1 | 0.88 | 0.85 | 0.85 | 0.94 | inactive |
| CARNMT1 (carnosine N-methyltransferase 1) | 1 | 0.67 | 0.76 | 0.69 | 0.58 | inactive |
| SHISA6 (shisa family member 6) | 1 | 0.28 | 0.38 | 0.47 | 0 | inactive |
| SHISA6 (shisa family member 6) | 2 | 0.35 | 0.18 | 0.93 | -0.06 | inactive |
| TMC5 (transmembrane channel like 5) | 1 | -0.6 | -0.96 | -0.14 | -0.7 | inactive |
| CAPN7 (calpain 7) | 1 | 0.15 | -0.48 | 0.27 | 0.67 | inactive |
| FXR1 (FMR1 autosomal homolog 1) | 1 | -1.58 | -1.01 | -1.88 | -1.83 | inactive |
| CDH20 (cadherin 20) | 1 | 0.21 | -0.22 | 0.59 | 0.25 | inactive |
| DNAJC21 (DnaJ heat shock protein family (Hsp40) member C21) | 1 | -0.03 | 0.22 | -0.16 | -0.14 | inactive |
| EMD (emerin) | 1 | -0.06 | -0.2 | -0.04 | 0.06 | inactive |
| SPAG6 (sperm associated antigen 6) | 1 | -0.01 | -0.01 | -0.2 | 0.18 | inactive |
| LOC400526 (retired record) | 1 | 1.13 | 1.12 | 1.15 | 1.13 | inactive |
| CD82 (CD82 molecule) | 1 | -0.38 | -0.4 | -0.51 | -0.22 | inactive |
| LOC340171 (retired record) | 1 | 0.28 | 0.25 | 0.19 | 0.39 | inactive |
| LOC389438 (retired record) | 1 | -0.97 | -0.81 | -1.02 | -1.06 | inactive |
| HAPSTR2 (HUWE1 associated protein modifying stress responses 2) | 1 | -0.17 | -0.61 | 0.02 | 0.09 | inactive |
| CRISPLD1 (cysteine rich secretory protein LCCL domain containing 1) | 1 | -0.42 | -0.4 | -0.73 | -0.12 | inactive |
| BTN3A3 (butyrophilin subfamily 3 member A3) | 1 | 0.46 | 0.39 | 0.23 | 0.75 | inactive |
| CDSN (corneodesmosin) | 1 | 0.63 | 0.61 | 0.6 | 0.68 | inactive |
| ARVCF (ARVCF delta catenin family member) | 1 | 0.28 | 0.81 | 0.07 | -0.05 | inactive |
| PIEZO1-AS1 (PIEZO1 antisense RNA 1) | 1 | 0.5 | 0.7 | 0.49 | 0.31 | inactive |
| ARSH (arylsulfatase family member H) | 1 | -1.15 | -1.27 | -1.09 | -1.09 | inactive |
| LDLRAD2 (low density lipoprotein receptor class A domain containing 2) | 1 | 0.78 | 0.35 | 1.26 | 0.74 | inactive |
| HLA-DRB4 (major histocompatibility complex, class II, DR beta 4) | 1 | 0.75 | 0.52 | 0.9 | 0.84 | inactive |
| HTR2C (5-hydroxytryptamine receptor 2C) | 1 | -0.4 | -0.06 | -0.35 | -0.79 | inactive |

5 of these entries, reformatted:
{"gene knocked down":"PPP2R5E (protein phosphatase 2 regulatory subunit B'epsilon)","pool no.":1,"mean z-score":-1.08,"z-score, replicate A":-0.88,"z-score, replicate B":-1.32,"z-score, replicate C":-1.04,"outcome":"inactive"}
{"gene knocked down":"RPL41 (ribosomal protein L41)","pool no.":1,"mean z-score":0.59,"z-score, replicate A":0.65,"z-score, replicate B":0.58,"z-score, replicate C":0.55,"outcome":"inactive"}
{"gene knocked down":"EXOC3L2 (exocyst complex component 3 like 2)","pool no.":1,"mean z-score":-1.89,"z-score, replicate A":-1.92,"z-score, replicate B":-1.99,"z-score, replicate C":-1.75,"outcome":"inactive"}
{"gene knocked down":"B4GALT4 (beta-1,4-galactosyltransferase 4)","pool no.":1,"mean z-score":-0.03,"z-score, replicate A":0.09,"z-score, replicate B":-0.24,"z-score, replicate C":0.07,"outcome":"inactive"}
{"gene knocked down":"FBXW11 (F-box and WD repeat domain containing 11)","pool no.":1,"mean z-score":1.41,"z-score, replicate A":1.15,"z-score, replicate B":1.33,"z-score, replicate C":1.75,"outcome":"inactive"}
